Measurements: publication PMC9460038, “Antigiardial Activity of Foeniculum vulgare Hexane Extract and Some of Its Constituents” (Plants, 2022)

Test system: Vero cells
Assay: Cytotoxic activity on Vero cell line (Trypan blue, 24 h)
Assay type: cell-based
Settings: ratio of IC50 in Vero cells to IC50 in G. duodenalis
Description: Cytotoxicity assay was performed on Vero cell line (ATCC CCL-81), as previously described. Briefly, Vero cells were cultivated in Roswell Park Memorial Institute (RPMI) medium supplemented with 10% fetal bovine serum (FBS). […] Each compound was dissolved in dimethyl sulfoxide (DMSO) and sterilized by filtration, and brought to final concentrations of 487, 243.5, 121.75 and 60.875 μg/mL with RPMI medium supplemented with 10% FBS. The cell suspension was adjusted to 1 × 10^4 cells/mL with RPMI medium supplemented with 10% FBS. Cell suspension (200 μL) was placed into a 96-well plate and incubated at 37 °C in a 5% CO2 atmosphere for 24 h. Each compound solution was added to each well containing the Vero cells and incubated for 24 h. The assay was carried out in triplicate. The number of cells were determined in a Neubauer chamber, while the percentage of viable cells was measured with the Trypan blue staining method.
The SI is the ratio of the IC50 concentration in host cells (Vero cells) to that in parasite (G. duodenalis).

| Compound | Selectivity Index (SI) |
| --- | --- |
| C=C1[C@H]2CC[C@H](C2)C1(C)C [(1R,4S) (+)-Camphene] | 2.7 |
| (R) (−)-Carvone | 1.6 |
